Compound potency records, mixed from different reports. Data source: NIAID ChemDB in PubChem.

Shared fields: whole-cell or culture tests; species: Rhinovirus

Neighbouring rows are from separate reports. Percent inhibition refers to the dose given; in toxicity tests it is the harm to the cells. An empty or dashed field is not shown. A number after MIC or MFC names an inhibition level or a share of isolates. ECn: concentration that inhibits the pathogen or its effect by n%.

| smiles | read-out | dose | cell line | strain | method | value |
|---|---|---|---|---|---|---|
| CN(C)c1nc(C(F)(F)F)nc2c1ncn2Cc1ccc([N+](=O)[O-])cc1 | inhibition | 10 µM | M-HELA | Serotype 5 | plaque count | 32% |
| CN(c1cccc(F)c1)c1nc(C(F)(F)F)nc2c1ncn2Cc1cccc(F)c1 | EC50 |  | M-HELA | Serotype 2 | plaque count | 5.7 µM |
| Cc1cc(CCCCCOc2cc(Cl)c(-c3nnc(C)o3)c(Cl)c2)on1 | MIC80 |  |  | Serotype 89 |  | 0.01 µg/mL |
| Cc1cc(-c2ccc(N=Nc3c(N)c(S(=O)(=O)O)cc4cc(S(=O)(=O)O)ccc34)c(C)c2)ccc1N=Nc1c(N)ccc2cc(S(=O)(=O)O)ccc12 | inhibition | 10 µg/mL | Human amnion AV3 cells |  | cytopathic effect | 0% |
| CN(C)c1nc(C(F)(F)F)nc2c1ncn2Cc1ccc(C(F)(F)F)cc1 | inhibition | 8 µM | M-HELA | Serotype 13 | plaque count | 22% |
| Cc1cc(CCCCCOc2c(Cl)cc(C3=NCCO3)cc2Cl)on1 | EC50 |  | HeLa | TYPE 19 | plaque count | 0.044 µg/mL |
| Cc1ccc(Cn2cnc3c(N(C)C)nc(C(F)(F)F)nc32)c(C)c1 | EC50 |  | M-HELA | Serotype 5 | plaque count | >8 µM |
| Cc1cc(CCCCCOc2cc(Cl)c(-c3nnco3)c(Cl)c2)on1 | MIC80 |  |  | Serotype 1B |  | 0.53 µg/mL |
| Nc1cc(S(=O)(=O)[O-])cc2cc(S(=O)(=O)[O-])ccc12 | inhibition | 5 µg/mL | Human amnion AV3 cells |  | cytopathic effect | 5% |
| CCOC(=O)/C=C/[C@H](C[C@@H]1CCNC1=O)NC(=O)[C@@H](CC(=O)[C@@H](NC(=O)c1cc(C)on1)C(C)C)Cc1ccc(F)cc1 | EC50 |  | OHIO HELA-I | Isolate 44 | cytopathic effect / visual reading | 0.02 µg/mL |
| Fc1cccc(Cn2cnc3c(Nc4cccc(F)c4)nc(C(F)(F)F)nc32)c1 | EC50 |  | M-HELA | Serotype 16 | plaque count | 1.4 µM |
| Cc1cc(Cl)ccc1Cn1cnc2c(N(C)C)nc(C(F)(F)F)nc21 | EC50 |  | M-HELA | Serotype 4 | plaque count | >8 µM |
| COc1cc(-c2ccc(N=Nc3ccc4c(S(=O)(=O)O)cc(S(=O)(=O)O)c(N)c4c3O)c(OC)c2)ccc1N=Nc1ccc2c(S(=O)(=O)O)cc(S(=O)(=O)O)c(N)c2c1O | inhibition | 10 µg/mL | Human amnion AV3 cells |  | cytopathic effect | 0% |
| CN(C)c1nc(C(F)(F)F)nc2c1ncn2Cc1ccc(S(C)(=O)=O)cc1 | EC50 |  | M-HELA | Serotype 15 | plaque count | >8 µM |
| CCO/N=C/c1ccc(OCCC2CCN(c3ccc(Cl)nn3)CC2)cc1 | EC50 |  | KB | 11757 (ICAM-1 receptor group 16) | neutral red | 0.008 µM |
| NS(=O)(=O)O | inhibition | 50 µg/mL | Human embryonic lung cells |  | cytopathic effect | 0% |

The last 2 rows once more:

smiles | read-out | dose | cell line | strain | method | value
CCO/N=C/c1ccc(OCCC2CCN(c3ccc(Cl)nn3)CC2)cc1 | EC50 |  | KB | 11757 (ICAM-1 receptor group 16) | neutral red | 0.008 µM
NS(=O)(=O)O | inhibition | 50 µg/mL | Human embryonic lung cells |  | cytopathic effect | 0%